According to the NIST ThermoML archive (doi:10.1016/j.tca.2010.07.032):
“And” between values parts separate entries of the source, which are not always exact repeats. Equal values may be shown once. Numbers after ± are expanded uncertainties.

Conditions: Liquid; Temperature-Programmed Gas Chromatography

**Q.** For CCCCOP(=O)(OCCCC)OCCCC [tributyl phosphate], which Normal boiling temperature is on record?
**A.** The Normal boiling temperature was 288.19 ± 29 °C and 285.50 ± 29 °C.
